Data on one substance can be found in PMC7048180.

For this experiment, the target named is 2019 novel coronavirus (2019-nCoV) spike protein receptor-binding domain (2019-nCoV). The experiment is described as follows: BLI.

For the substance CR3022, the Kd was found to be 6.28 nM and the off-rate constant (koff) was 0.00116 s⁻¹.
